Results: paper PMC12071706 (International Journal of Molecular Sciences, 2025)

Biological target: human ACE2 protein (hACE2), recombinant, His-tagged, Gln18-Ser740 (human, UniProt Q9BYF1 18-740)
Experiment: ITC

Binder: GVKGFNCYFPLQSYGFQPTNG [Zeta RBM fragment (peptide) of the SARS-CoV-2 spike protein, E484K]
- stoichiometry N: 0.76
